# Data: the supplement of paper PMC9931576
# Human monoclonal antibodies against the spike receptor-binding domain (heavy:light variable regions). IC50 against pseudoviruses bearing the spike of naturally observed variants; lower = stronger; >10 µg/ml means not reached at the top dose. No active / inactive call. The stated detection limit is 0.0005 µg/ml; values near or below 0.001 µg/ml lie at the floor of the assay.
# B1: BD57-0324 (protein)
# chain 1: EVQVVESGGGLVQPGRSLRLSCAASGFTFDDYAMHWVRQAPGKGLEWVSGTSWNSGTIGYADSVKGRFIISRDNAKNSLYLQMTRLRDDDTALYYCVKDKKTSYGSGSYRWDASFYFDHWGQGTLVIVSS
# chain 2: DIQMTQSPSSLSASVGDRVTITCQASQDINNYLNWYQQKPGKAPSLLIYDASNLETGVPSRFSGSGSGTDFTFTISSLQPEDIATYYCQQFDDPPLTFGGGTKVEIK
# B2: BD57-0334 (protein)
# chain 1: QITLRESGPTLVKPTQTLTLTCTVSGFSLGSAGVGVGWIRQPPGKALEWLALIYRDDDKRYSPSLNTRLTITKDTSKNLVVLTMADVDPLDTATYYCAQSIYGTNFFGPWGQGTLVIVSS
# chain 2: EIVLTQSPATLSLSPGERATLSCRASQGAISYLAWYQQRPGQAPRLLIYDSSKRATGIPARFSGSGSGTDFTLTISSLEPEDFAVYYCQLRSNWPPMYTFGQGTKLEIK
# B3: BD57-0337 (protein)
# chain 1: QVQLRQWGAGLLKPSETLSLTCDVYGGSFSGYFWSWIRQPPGKGLEWIGDINHSGSTNYNPSLKSRVTISEDTSKHQFSLKLTSVTAADTAIYYCARGGWVYYGSQILPFDYWGQGTLVTVSS
# chain 2: DIVMTQSPDSLAGSLGERATINCKSSQSVLYSTNNKNYLAWYQQKPGQPPKLLFYWASTRESGVPDRFSGSGSGTDFTLTISSLQAEDVAIYYCQQYYSTPLTFGGGTKVEIK
# B4: BD57-0343 (protein)
# chain 1: QVQMVESGGGVVQPGRSLRLSCVVSGFTFSTYGMHWVRQAPGKGLEWVAVMWYDGTNQDYTDSVKGRFTISRDNSKNTLYLEMNSLRVEDTAVYFCAREAYYYGSSGENYFQYYMDVWGKGTTVTVSS
# chain 2: QSALTQPRSVSGSPGQSVTISCTGTSSDVGGYNYVSWYQHHPGKAPKVMIYDVNKRPSGVPDRFSGSKSDNTASLTISGLQSEDEADYYCCSYAGTYTYVFGTGTTVSVL
# B5: BD57-0351 (protein)
# chain 1: QVTLRESGPALVKPTQTLTLTCTFSGFSLNTNLMSVAWIRQPPGKALEWLARIDWDDDKFYSPAVKTRLTISKDTSKNQVVLTMTTMDPLDTATYYCARMRLGGFQFHADYWGQGTQVAVSS
# chain 2: QSVLTQPPSVSAAPGQKVTISCSGSSSNIGDNYVSWYQQLPGTAPKLLIYDNNKRPSGIPDRFSGSKSGTSATLGITGLQTGDEADYYCGTWDSSLNSGVFGGGTRLTVL
# B6: BD57-0354 (protein)
# chain 1: EVQLVESGGGLVQPGGSLRLSCAASGFTFSSYSMNWVRQAPGKGLEWVSYISSSSSPIYYADSVKGRFTISRDNAKNSLYLQMNSLRDEDTAVYYCARDSSYNWNHDLDYWGQGTLVTVSS
# chain 2: EIVLTQSPATLSLSPGERATLSCRASQSISSFLAWYQQKPGQAPRLLIYDASNRATGIPARFSGSGSGTDFTLTISSLEPEDFAVYYCQQRSNWPQTFGQGTRLEIK
# B7: BD57-0355 (protein)
# chain 1: QYQLVQSGAEVKKPGSSVKVSCKASGGSLSNFAVSWVRQAPGQGLEWMGGIVPILGTTDYAQHFQGRVTITVDESMSTAYMELTSLRSADTAVYFCATGVRYCTSDSCSSAYFRDWGQGTLVTVSS
# chain 2: EIVLTQSPGTLSLSPGERATLSCRASQRISATHLAWYQQQPGQAPRLLIYGTSSRATGVPDRFSGSGSGTDFTLTISRLEPEDFAVYYCQQYGSSPRTFGQGTKVEIK
# B8: BD57-0357 (protein)
# chain 1: QVQLVQSGAEVKRPGASVKVSCKASGYTFTSYDINWVRQAAGQGLEWMGWISPISGNTGFAQKFQGRVSMTRDTSISTVFLDLSGLRSEDTAVYYCARGGRYCTSTNCYSHYGLDVWGQGTTVIVSS
# chain 2: DIQLTQSPSFLSASVGDRVTITCRASQDISTHLAWYQQKPGKAPKFLIYDASTLQSGVPSRFSGSGSGTEFTLTISSLQPEDFATYYCQQLNTYTLTFGGGTKLDIK
# B9: BD57-0358 (protein)
# chain 1: EVQLVQSGVEVKKPGESLKISCKGSGYSFTNHWIGWVRQMPGKGLEWMGIIYPGDSDTRYNPSFQGQVTISVDKSISSAYLQWSSLKASDTAMYYCASRGGAYLGDVFDIWGQGTMVIVSS
# chain 2: QSALTQPASVSGSPGQSITISCTGTSSDVGSYNLLSWYQQHPGKAPKLMIYEGSERPSGVSHRFSGSNSGTTASLTISGLQSEDEADYYCCSYAGSTTPWVFGGGTKLTVL
# B10: BD57-0359 (protein)
# chain 1: QVQLVQSGAEVKKPGASVKVSCKASGHTFTGYYMHWVRQAPGQGLEWMGWINPISGGTNYAQKFQGRVTMTRDTSINTAYMELSRLTADDTAVYYCARRGEEEQWLEHGYYYYMDVWGKGTTVTVSS
# chain 2: QSALTQPASVSGSPGQSITISCTGTSSDVGAYNYVSWYQQHPGKAPKLIIYDVSNRPSGISNRFSGSTSGNTASLTISGLQAEDEADYYCSSNTSRTLVFGGGTKLTVL
# B11: BD57-0364 (protein)
# chain 1: QVQLVESGGGVVQPGGSLRLSCAASGFTFKNYGLHWVRQAPGKGPEWVSFIWYDGSNKYYADSVKGRFITSRDNSKNTLFLQMNSLRPDDTAVYYCSLGSGSYASDPRTLDYWGHGALVTVSS
# chain 2: DIQMTQSPSSLSASVGDRVTITCRASQNIANYLNWYQQKPGKAPELLIYDASSLQSGDPSRFSGSGSGTDFTLTISSLQPEDFATYYCQQSYSTPLFTFGQGTKLEIK
# B12: BD57-0369 (protein)
# chain 1: QVQLVESGGGVVQPGRSLRLSCAASGFTFRNYGMHWVRQAPGKGLEWVAMIWNDGSNAYYGDSVKGRFTISRDNSKNTLFLQMNTLRVEDMAVYYCVRDAGSEVLYDVTGQGNWFDPWGQGTLVTVSS
# chain 2: DIQMTQSPSSLSASVGDRVTITCRASQNIESHLNWYQQKPGKAPKLLIYAASTLQSEVPSRFSGRGTGTDFTLTISSLQREDFATYYCQQSDSLPTTFGQGTKVEIK
# Target: SARS-CoV-2 Omicron BA.1 spike pseudovirus
# Test: pseudovirus neutralization IC50; higher = weaker neutralization
# Description: (§1)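 Single-round VSV luciferase pseudovirus mixed with antibody dilutions for 1 h and put on Huh-7 cells for about a day; IC50 from the dose curve.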
row,Binder,pseudovirus neutralization IC50 [µg/mL]
1,B1,0.105
2,B2,> 10
3,B3,0.454
4,B4,0.108
5,B5,> 10
6,B6,1.41
7,B7,> 10
8,B8,3.08
9,B9,0.783
10,B10,> 10
11,B11,5.98
12,B12,2.92

# Target: SARS-CoV-2 Omicron BA.2 spike pseudovirus
# Test: as above
# Description: as §1
row,Binder,pseudovirus neutralization IC50 [µg/mL]
1,B1,0.0851
2,B2,> 10
3,B3,1.09
4,B4,0.337
5,B5,0.00198
6,B6,0.0239
7,B7,> 10
8,B8,0.0895
9,B9,0.433
10,B10,> 10
11,B11,4.14
12,B12,2.36

# Target: SARS-CoV-2 Omicron BA.2.75 spike pseudovirus
# Test: as above
# Description: as §1
row,Binder,pseudovirus neutralization IC50 [µg/mL]
1,B1,0.0924
2,B2,> 10
3,B3,0.749
4,B4,0.362
5,B5,1.41
6,B6,0.432
7,B7,0.935
8,B8,0.0139
9,B9,0.695
10,B10,0.343
11,B11,5.18
12,B12,2.18

# Target: SARS-CoV-2 Omicron BA.5 spike pseudovirus
# Test: as above
# Description: as §1
row,Binder,pseudovirus neutralization IC50 [µg/mL]
1,B1,0.159
2,B2,> 10
3,B3,0.766
4,B4,0.455
5,B5,0.000883
6,B6,0.00708
7,B7,2.6
8,B8,> 10
9,B9,0.544
10,B10,> 10
11,B11,> 10
12,B12,2.58

# Target: SARS-CoV-2 Omicron BQ.1.1 spike pseudovirus
# Test: as above
# Description: as §1
row,Binder,pseudovirus neutralization IC50 [µg/mL]
1,B1,> 10
2,B2,> 10
3,B3,3.01
4,B4,> 10
5,B5,> 10
6,B6,> 10
7,B7,> 10
8,B8,> 10
9,B9,1.3
10,B10,> 10
11,B11,> 10
12,B12,2.94

# Target: SARS-CoV-2 Omicron XBB spike pseudovirus
# Test: as above
# Description: as §1
row,Binder,pseudovirus neutralization IC50 [µg/mL]
1,B1,0.286
2,B2,> 10
3,B3,2.11
4,B4,> 10
5,B5,> 10
6,B6,> 10
7,B7,> 10
8,B8,> 10
9,B9,0.896
10,B10,> 10
11,B11,> 10
12,B12,3.06

# Target: SARS-CoV-2 early D614G spike pseudovirus
# Test: as above
# Description: as §1
row,Binder,pseudovirus neutralization IC50 [µg/mL]
1,B1,0.032
2,B2,> 10
3,B3,0.884
4,B4,0.161
5,B5,0.000963
6,B6,0.00687
7,B7,0.00149
8,B8,0.00117
9,B9,4.4
10,B10,0.000916
11,B11,> 10
12,B12,> 10
